Results of unrelated studies side by side (data: NIAID ChemDB).

Common to all: tests in culture; agent: Hepatitis B virus

Two numbers with a dash give a range or band. ECn: concentration that inhibits the pathogen or its effect by n%. Rows are shuffled and stem from different studies. Percent inhibition refers to the dose given; in toxicity tests it is the harm to the cells. An empty or dashed field is not shown.

{"compound": "COc1ccc(-n2c(C(=O)NCc3ccc(OC)cc3Cl)c3n(c2=O)CCN(C(=O)c2ccc(Cl)c(Cl)c2)C3)cc1", "cell line": "HepG2.117", "measure": "EC50", "method": "PCR", "value": "0.5–5 µM"}
{"compound": "C[C@@H]1O[C@@H](O[C@@H]2Cc3c(O)cc(O)cc3O[C@@H]2c2ccc(O)c(O)c2)[C@H](O)[C@H](O)[C@H]1O", "cell line": "HepG2.2.15", "dose": "30 µM", "measure": "inhibition", "method": "ELISA / antigen", "value": "71.2%"}
{"compound": "O=C(N/C(C(=O)N1CCCCC1)=C(/Cl)c1ccccc1)c1ccccc1", "cell line": "HepAD38", "measure": "EC90", "value": "12 µM"}
{"compound": "Cc1cn([C@H]2C[C@H](N=[N+]=[N-])[C@@H](CO)O2)c(=O)[nH]c1=O", "cell line": "HepAD38", "measure": "EC90", "method": "PCR", "value": ">10 µM"}
{"compound": "CC(C)Oc1ccc(-n2c(C(=O)NCc3ccccc3)c3n(c2=O)CCN(C(=O)COc2ccccc2Cl)C3)cc1", "cell line": "HepG2.117", "measure": "EC50", "method": "PCR", "value": ">5 µM"}
{"compound": "C[C@H]1Cc2c(n3ncc(Cc4ccccc4)c3n(-c3ccc(-n4ccc(C(F)(F)F)n4)cc3)c2=O)CN1C(=O)c1ccc(Br)c(C(F)(F)F)c1", "cell line": "HepG2.117", "measure": "EC50", "method": "luminescence", "value": "0.5–5 µM"}
{"compound": "COCCCOc1cc2c(cc1-c1ccc(C)s1)-c1c(cc(C(=O)O)c(=O)n1C1CC1)CS2(=O)=O", "cell line": "Primary human hepatocytes", "measure": "EC50", "method": "antigen / visual reading / absorbance", "value": "0.1–0.5 µM"}
{"compound": "C.O=C(Nc1ccc(F)c(F)c1)c1cc(S(=O)(=O)N2CC(F)(F)C2)ccc1F", "dose": "6.3 µM", "measure": "inhibition", "value": "90%"}
{"compound": "CC1c2cc(C(=O)O)c(=O)n(C3CC3)c2-c2cc(Cl)c(OCCC3CC3)cc2S1(=O)=O", "cell line": "Primary human hepatocytes", "measure": "EC50", "method": "antigen / visual reading / absorbance", "value": "0.05–0.1 µM"}
{"compound": "CNC(=O)c1ccc(-n2c(=O)c3c(n4ncc(CC5CC5)c24)CN(C(=O)c2ccc(Br)c(C(F)(F)F)c2)[C@H](C)C3)cc1", "cell line": "HepG2.117", "measure": "EC50", "method": "luminescence", "value": "≤0.05 µM"}
{"compound": "CC(C)Oc1ccc(-n2c(C(=O)NCc3ccccc3)c3n(c2=O)CCN(C(=O)/C=C/c2ccccc2Cl)C3)cc1", "cell line": "HepG2.117", "measure": "EC50", "method": "PCR", "value": ">5 µM"}
{"compound": "Cc1nc(-c2ccc(-n3c(=O)c4c(n5ncc(CC(C)C)c35)CN(C(=O)c3ccc(Br)c(C(F)(F)F)c3)[C@H](C)C4)cc2)n[nH]1", "cell line": "HepG2.117", "measure": "EC50", "method": "luminescence", "value": "≤0.05 µM"}
{"compound": "Nc1nc(N)c2ncn([C@H]3CO[C@@H](CO)O3)c2n1", "cell line": "HepAD38", "measure": "EC90", "method": "PCR", "value": ">100 µM"}
{"compound": "COc1ccc(CNC(=O)c2c3n(c(=O)n2-c2ccc(OC(C)C)cc2)CCN(C(=O)c2ccc(Br)c(Cl)c2)C3)cc1", "cell line": "HepG2.117", "measure": "EC50", "method": "PCR", "value": "0.1–0.5 µM"}
{"compound": "COCCCOc1cc2c(cc1C(=O)N(C)C)-c1c(cc(C(=O)O)c(=O)n1C1CC1)C(C)S2(=O)=O", "cell line": "Primary human hepatocytes", "measure": "EC50", "method": "antigen / visual reading / absorbance", "value": ">0.5 µM"}
{"compound": "CCCCCCCCCC(=O)Nc1nc(N)nc2c1ncn2[C@H]1CO[C@@H](COP(=O)(N[C@@H](C)C(=O)OCC)Oc2ccccc2)O1", "cell line": "HepAD38", "measure": "EC90", "method": "PCR", "value": "≥10 µM"}
{"compound": "COCCCOc1cc2c(cc1-c1ccccc1)-c1c(cc(C(=O)O)c(=O)n1C1CC1)C(C)S2(=O)=O", "cell line": "Primary human hepatocytes", "measure": "EC50", "method": "antigen / visual reading / absorbance", "value": ">0.5 µM"}
{"compound": "O=C(O[C@@H]1Cc2c(O)cc(O)cc2O[C@@H]1c1cc(O)c(O)c(O)c1)c1cc(O)c(O)c(O)c1", "dose": "100 µM", "measure": "inhibition", "method": "PCR", "value": "71.8%"}
{"compound": "Nc1nc(=O)c2ncn([C@@H]3O[C@H](CO)[C@@H](O)[C@H]3O)c2c(=O)[nH]1", "cell line": "2.2.15", "dose": "10 µM", "measure": "inhibition", "method": "antigen", "value": "50%"}
{"compound": "CCCC(=O)Nc1nc(N)nc2c1ncn2[C@H]1CO[C@@H](COP(=O)(N[C@@H](C)C(=O)OCC)Oc2ccccc2)O1", "cell line": "HepAD38", "measure": "EC90", "method": "PCR", "value": ">10 µM"}
{"compound": "C[C@H]1Cc2c(n3ncc(CC4CCC4)c3n(-c3ccc(-c4nncn4C)cc3)c2=O)CN1C(=O)c1ccc(Br)c(C(F)(F)F)c1", "cell line": "HepG2.117", "measure": "EC50", "method": "luminescence", "value": "0.05–0.5 µM"}
{"compound": "COCCn1cc(-c2cc3c(cc2Cl)-c2c(cc(C(=O)O)c(=O)n2C2CC2)C(C)S3(=O)=O)cn1", "cell line": "Primary human hepatocytes", "measure": "EC50", "method": "antigen / visual reading / absorbance", "value": "0.1–0.5 µM"}

Repeating the first 3 entries:

compound	cell line	dose	measure	method	value
COc1ccc(-n2c(C(=O)NCc3ccc(OC)cc3Cl)c3n(c2=O)CCN(C(=O)c2ccc(Cl)c(Cl)c2)C3)cc1	HepG2.117	-	EC50	PCR	0.5–5 µM
C[C@@H]1O[C@@H](O[C@@H]2Cc3c(O)cc(O)cc3O[C@@H]2c2ccc(O)c(O)c2)[C@H](O)[C@H](O)[C@H]1O	HepG2.2.15	30 µM	inhibition	ELISA / antigen	71.2%
O=C(N/C(C(=O)N1CCCCC1)=C(/Cl)c1ccccc1)c1ccccc1	HepAD38	-	EC90	-	12 µM